Negatives hold for the conditions tested. Protein sequences can lack the tags named with them.
Tested on: T1, HpyF30I restriction endonuclease (Helicobacter pylori RFL30)
T1 sequence: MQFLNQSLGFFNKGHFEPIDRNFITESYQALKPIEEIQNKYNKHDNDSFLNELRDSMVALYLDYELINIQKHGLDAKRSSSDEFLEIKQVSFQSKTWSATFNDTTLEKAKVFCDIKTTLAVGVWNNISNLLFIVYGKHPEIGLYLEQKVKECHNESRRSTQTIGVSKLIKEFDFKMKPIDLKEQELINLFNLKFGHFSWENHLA
Test: enzyme reaction in vitro
Settings: 37 C, purified recombinant protein

Sequence	activity on this sequence (5mC in TCGA of both strands (lower strand filled in with dm5CTP), resistant at highest enzyme amount, Tango, variant of 55 bp TCGA oligonucleotide)	activity on this sequence (blunt cut TC/GA, Tango buffer, 10 mM Mg acetate)
AGCACTCTAGAGGATCCCCGGGTACCGAGCTCGAATTCACTGGCCGTCGTTTTAC (double strand) [55 bp TCGA oligonucleotide m5C]	not active	
AGCACTCTAGAGGATCCCCGGGTACCGAGCTCGAATTCACTGGCCGTCGTTTTAC (double strand) [55 bp TCGA oligonucleotide]		active
